Results deposited as PubChem BioAssay AID504761 (Drosophila RNAi Screening Center, 2011).

- Assay: 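Genome-wide fly cell screen for genes dengue virus requires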 (primary screen)
- Cells: D.Mel-2 cells from Drosophila
- Knock-down reagent: long dsRNA against Drosophila genes
- Challenge: infection with dengue virus type 2; dose and infection time not stated
- Read-out: 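Cells stained for dengue envelope protein and imaged; percent of infected cells per well on duplicate plates, ranked by infection, with stained nuclei counted for cell number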
- Scale: infection score: higher = more virus-infected cells; cell count: higher = more cells in the well
- Rule for the call: 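Low infection ranks in the two replicates (chance level up to 0.065) followed by a retest with a 1.5-fold or larger significant decrease, p below 0.05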
- Calls: active = confirmed: knock-down lowers infection; inactive = not picked or not confirmed
The screen tested about 22,000 reagents; this is a random part of those with a known target gene and a result. In the full data, 116 (0.52%) got an active call. 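Calls depend on retest data that are not deposited; infection was ranked per plate without normalising between plates; the unit of the infection score is not given.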 Raw values vary from plate to plate and are shown uncorrected. Names joined by + are all predicted targets of the reagent. Not all columns of the deposit are shown. The record does not give: the amount of reagent, the time to read-out.

Gene | dsRNA | infection score, replicate 1 | infection score, replicate 2 | cell count, replicate 1 | call
Mal-A7 | DRSC06077 | 9.82 | 5.47 | 5660 | inactive
ND-B14.7 | DRSC04544 | 11.5 | 15.3 | 4731 | inactive
Osbp | DRSC16779 | 1.66 | 3.31 | 6193 | inactive
Oli | DRSC02866 | 9.1 | 9.52 | 6553 | inactive
Oli | DRSC26246 | 8.77 | 15 | 2166 | inactive
CG33298 | DRSC02210 | 14.1 | 0.61 | 4424 | inactive
CG33298 | DRSC02672 | 18.2 | 6.83 | 6223 | inactive
Nab2 | DRSC14158 | 3.61 | 2.15 | 6614 | inactive
Nab2 | DRSC27135 | 6.48 | 4.15 | 6514 | inactive
UbcE2H | DRSC18221 | 5.25 | 4.49 | 6209 | inactive
UbcE2H | DRSC27123 | 20.2 | 3.33 | 4576 | inactive
Ets98B | DRSC16666 | 1.72 | 8.13 | 6235 | inactive
Ets98B | DRSC24625 | 0.72 | 0.82 | 6136 | inactive
CG5276 | DRSC15759 | 8.4 | 16.9 | 5406 | inactive
tna | DRSC23236 | 1.63 | 3.46 | 6448 | inactive
tna | DRSC29530 | – | 22.7 | 352 | inactive
CG9396 | DRSC16487 | 2.93 | 26.4 | 6492 | inactive
CG9396 | DRSC24611 | 2.55 | 13.5 | 6035 | inactive
Acp32CD | DRSC01858 | 1.45 | 1.29 | 6642 | inactive
Acp32CD | DRSC23817 | 6.2 | 12.1 | 5593 | inactive
CG32719 | DRSC17525 | 1.39 | 5.51 | 6096 | inactive
CG32719 | DRSC26765 | 2.93 | 10.8 | 6662 | inactive
CG11262 | DRSC09831 | 0.4 | 2.83 | 6006 | inactive
mRpL23 | DRSC08307 | 8.75 | 14.9 | 5202 | inactive
CG6282 | DRSC10616 | 3.68 | 2.23 | 6812 | inactive
CG6282 | DRSC29524 | 20.9 | 4 | 4919 | inactive
CG31265 | DRSC15745 | 3.73 | 4.07 | 6591 | inactive
CG31265 | DRSC28592 | 8.61 | 10.5 | 3564 | inactive
CG11257 | DRSC06068 | 4.01 | 1.83 | 6307 | inactive
CG14423 | DRSC17920 | 0.91 | 0.75 | 6278 | inactive
CG14423 | DRSC23857 | 3.15 | 9.31 | 6154 | inactive
CG16700 | DRSC19755 | 1.75 | 1.63 | 6515 | inactive
CG16719 | DRSC10222 | 7.64 | 8.75 | 6194 | inactive
RpS6 | DRSC18712 | 22.7 | 15.3 | 1508 | inactive
RpS6 | DRSC25010 | 5.18 | 8.39 | 2412 | inactive
trh | DRSC08355 | 5.42 | 1.06 | 5669 | inactive
trh | DRSC08739 | 2.72 | 12.1 | 5802 | inactive
trh | DRSC30093 | 4.5 | 12.7 | 6162 | inactive
CG31145 | DRSC14206 | 6.03 | 10.4 | 6120 | inactive
CG31145 | DRSC14671 | 14.4 | – | 5470 | inactive
CG31145 | DRSC26758 | 3.44 | 2.25 | 6652 | inactive
unc80 | DRSC15329 | 2.35 | 0.49 | 639 | inactive
Dys + snoRNA:Me18S-A1374 | DRSC16232 | 9.74 | 1.51 | 5707 | inactive
CG18336 | DRSC06334 | – | 12.1 | 472 | inactive
CG2147 | DRSC18211 | 3.31 | 1.98 | 6202 | inactive
CG30369 | DRSC21996 | 3.88 | 0.5 | 6683 | inactive
CG30369 | DRSC29843 | 7.36 | 8.61 | 6485 | inactive
CG8066 | DRSC16374 | 6.53 | 1.38 | 6022 | inactive
CG8066 | DRSC24633 | 4.54 | 8.37 | 6480 | inactive
bc10 | DRSC11326 | 1.12 | 5.38 | 5808 | inactive
bap | DRSC16908 | – | 0.89 | 472 | inactive
bap | DRSC27201 | 23.5 | 26 | 3774 | inactive
CG6610 | DRSC10674 | 1.17 | 2.7 | 5579 | inactive
Prp19 | DRSC07434 | 10.3 | 8.83 | 3333 | inactive
Prp19 | DRSC23905 | 2.93 | 1.08 | 3989 | inactive
Atet | DRSC00263 | 5.42 | 5.64 | 6713 | inactive
alrm | DRSC14436 | 1.83 | 10.2 | 6322 | inactive
RpL37-2 | DRSC04584 | 13.5 | 19.1 | 6383 | inactive
ppk3 | DRSC04275 | 14.2 | 30.5 | 4818 | inactive
ppk3 | DRSC25960 | 7.05 | 2.23 | 6170 | inactive
CG15643 | DRSC19679 | 7.08 | 4.13 | 6273 | inactive
CG15643 | DRSC27051 | 2.28 | 3.46 | 6228 | inactive
jing | DRSC04923 | 8.17 | 3.25 | 5351 | inactive
jing | DRSC05000 | 7.27 | 27.5 | 6728 | inactive
CG13247 | DRSC11695 | 11.8 | 13.2 | 5856 | inactive
Ctr9 | DRSC08562 | 13 | 18.4 | 4556 | inactive
Ctr9 | DRSC27308 | 31.2 | 6.06 | 5517 | inactive
cry | DRSC16928 | 0.18 | 1.97 | 6603 | inactive
CG31189 | DRSC16198 | 7.26 | 10.2 | 6595 | inactive
CG1943 | DRSC12576 | 3.33 | 0.4 | 5734 | inactive
CG4374 | DRSC15570 | 5.07 | 8.26 | 1755 | inactive
CG4374 | DRSC27482 | 25.8 | 4.05 | 5122 | inactive
CG45067 | DRSC08414 | 3.83 | 0.8 | 6266 | inactive
CG45067 | DRSC27186 | 14 | 10.4 | 6917 | inactive
